Results of unrelated studies side by side (data: NIAID ChemDB).

All rows: host cell toxicity; cell line: MT-4; endpoint: CC50

Blank or dashed fields: not listed here.

| compound | method | value |
|---|---|---|
| Cc1cc(NC(=S)NCCc2c(F)cccc2F)ncc1Br | - | >25 µg/mL |
| CCc1c(Sc2ccccc2)n(C/C=C/c2ccco2)c(=O)[nH]c1=O | - | >1 µM |
| Cc1ccc(NC(=S)NCCc2c(F)cccc2F)nc1 | - | >1 µg/mL |
| [N-]=[N+]=N[C@]1(CO)O[C@@H](n2cnc3c(=O)[nH]c(N)nc32)C[C@@H]1O | absorbance | 4.7 µM |
| Cc1cn([C@@H]2O[C@H](C3CO[Si](C(C)C)(C(C)C)O[Si](C(C)C)(C(C)C)O3)C3(OS(=O)(=O)C=C3N)[C@H]2O[Si](C)(C)C(C)(C)C)c(=O)[nH]c1=O | - | 4.5 µM |
| NC[C@@H]1C[C@H](O)[C@H](n2cnc3c(N)ncnc32)O1 | trypan blue | >500 µg/mL |
| Cc1c(Cl)nc(Nc2ccc(C#N)cc2)nc1Oc1ccc2ccccc2c1Br | MTT | 153 µM |
| O=C1c2ccccc2C(=O)c2c1cc(S(=O)(=O)O)c(O)c2O | - | 120 µg/mL |
| NC[C@@H]1C[C@@H](N)[C@H](n2cnc3c(N)ncnc32)O1 | trypan blue | >500 µg/mL |
| CCc1ccc(NC(=S)OCCN2C(=O)c3ccc(C)cc3C2=O)cc1 | - | >100 µM |
| Nc1ncnc2c1ncn2[C@H]1C[C@H](N)[C@@H](CO)O1 | trypan blue | 104 µg/mL |
| Cc1cn([C@H]2C[C@H](N=[N+]=[N-])[C@@H](CO)O2)c(=O)[nH]c1=O | MTT | 257 µg/mL |
| Nc1ncnc2c1ncn2[C@@H]1O[C@H](CO)C[C@@H]1N | trypan blue | >500 µg/mL |
| Cc1c(Sc2ccccc2)n(C/C=C/C2CCCCC2)c(=O)[nH]c1=O | - | >1 µM |
| CN(Cc1ccc(CN2CCCNCCNCCCNCC2)cc1)Cc1ccccn1 | - | >250 µg/mL |
| C=C1[C@H](CO)[C@@H](O)C[C@@H]1n1cnc2c(=O)[nH]c(N)nc21 | absorbance | 44.5 µM |
| CC(C)(C)[Si](C)(C)OC[C@H]1O[C@@H](n2ccc(=O)[nH]c2=O)[C@H](O[Si](C)(C)C(C)(C)C)C12OS(=O)(=O)C=C2N | - | 3.1 µg/mL |
| CC(=O)N[C@H]1C[C@H](n2cc(C)c(=O)[nH]c2=O)O[C@@H]1CO | - | 10 µM |
| CC(C)(CC(=O)O[C@H]1CC[C@]23C[C@]24CC[C@]25CO[C@@]6(C(C)(C)O)CC[C@](C)(O6)[C@H]2[C@@H](O)[C@@H](O)[C@@]5(C)C4CCC3C1(C)C)C(=O)OCc1ccccc1 | luminescence | 13.2 µM |
| Nc1ncnc2c1ncn2[C@@H]1O[C@H](CO)[C@@H](F)[C@H]1O | - | 1.6 µM |
| CCN(CC)C(=O)c1cccn1S(=O)(=O)c1cc(Cl)ccc1[N+](=O)[O-] | MTT | 13 µM |
| O=C(NCc1ccc(F)cc1)c1nc2n(c(=O)c1O)CCNC21CCOCC1 | microscopy | >1 µM |
| CC(=O)O[C@H]1[C@H](n2cc(C)c(=O)[nH]c2=O)O[C@H](COC(=O)c2ccccc2)C12OS(=O)(=O)C=C2N | - | >100 µg/mL |
| CCN(CC)c1cc(-c2ccc(OCCCCC#N)cc2OC(=O)c2ccc([N+](=O)[O-])cc2)on1 | - | 5 µM |
| NC[C@H]1O[C@@H](n2cnc3c(N)ncnc32)C[C@H]1O | trypan blue | >500 µg/mL |
| CCc1c(NC)nc(Nc2ccc(C#N)cc2)nc1Oc1ccc2cc(Br)ccc2c1Br | MTT | 64.34 µM |
| CC(C)(C)c1ccc2c(c1)C(=O)N(CCOC(=S)Nc1ccc(Cl)cc1)C2=O | - | >100 µM |
| Cc1c(Sc2ccccn2)n(COCCSc2ccccn2)c(=O)[nH]c1=O | - | >1 µM |
| Cc1cn(CCCO[C@@H]2O[C@H](CO)[C@@H](N=[N+]=[N-])[C@H]2O)c(=O)[nH]c1=O | MTT | >100 µg/mL |
| Cc1c(Sc2ccccc2)n(COCCNC(=O)CCCl)c(=O)[nH]c1=O | - | >1 µM |
| COCCOC(=O)c1cccn1S(=O)(=O)c1cc(Cl)ccc1[N+](=O)[O-] | MTT | 12 µM |
| Cc1c(Sc2ccccn2)n(COCCSc2ccccc2)c(=O)[nH]c1=O | - | >1 µM |
| CC1(C)c2nc(C(=O)NCc3ccc(F)cc3)c(O)c(=O)n2CCN1CCc1ccccn1 | microscopy | >1 µM |
| CCc1c(Cl)nc(Nc2ccc(C#N)cc2)nc1Oc1ccc2cc(C#N)ccc2c1Br | MTT | 167 µM |
| C/C=C/C(=O)O[C@H]1CC[C@]23C[C@]24CC[C@]25CO[C@@]6(C(C)(C)O)CC[C@](C)(O6)C2[C@@H](OC(C)=O)[C@@H](OC(C)=O)[C@@]5(C)C4CC[C@H]3C1(C)C | luminescence | <5 µM |
| O=C(OC1CCCCC1)c1cccn1S(=O)(=O)c1cc(Cl)ccc1[N+](=O)[O-] | MTT | 160 µM |
| CC(=O)N[C@H]1OC(CO[Si](C)(C)C(C)(C)C)C2(OS(=O)(=O)C=C2N)C1O[Si](C)(C)C(C)(C)C | - | 14.8 µM |
| Cc1cc2ccccc2c(C)c1Oc1ccnc(Nc2ccc(C#N)cc2)n1 | MTT | 303 µM |
| Cc1cn([C@H]2C[C@H](O[Si](C)(C)C(C)(C)C)[C@@H](CO)O2)c(=O)[nH]c1=O | - | 34 µg/mL |
| CC(C)C[C@@H](CO)NC(=O)[C@]12CCC(C)(C)C=C1[C@H]1CC[C@@H]3[C@@]4(C)CC[C@H](OC(=O)CC(C)(C)C(=O)O)C(C)(C)[C@@H]4CC[C@@]3(C)[C@]1(C)CC2 | - | 23.5 µM |
| CC(C)(C)[Si](C)(C)O[C@H]1[C@H](n2cnc3c(N)ncnc32)O[C@H](CO)C12CS(=O)(=O)C=C2N | - | ≥200 µg/mL |
| CC(=O)N1CCn2c(nc(C(=O)NCc3ccc(F)cc3)c(O)c2=O)C(N(C)Cc2ccccc2)C1 | microscopy | >1 µM |
| Nc1ncnc2c1ncn2[C@H]1C[C@@H](N)[C@@H](CO)O1 | trypan blue | >500 µg/mL |
| c1cc(CNCc2ccc(CN3CCCNCCNCCCNCC3)cc2)ccn1 | - | >250 µg/mL |
| Cc1c(Sc2ccccc2)n(C/C=C/c2cccs2)c(=O)[nH]c1=O | - | >1 µM |
| CCN(CC)c1cc(=O)c2ccc(OCCCCC#N)cc2o1 | - | >200 µM |
| Cc1cn([C@@H]2O[C@H](C3CO[Si](C(C)C)(C(C)C)O[Si](C(C)C)(C(C)C)O3)C3(OS(=O)(=O)C=C3N)[C@H]2O)c(=O)[nH]c1=O | - | 11.8 µM |
| Cc1ccc2c(c1)C(=O)N(CCOC(=S)Nc1ccc(Br)cc1)C2=O | - | >100 µM |
| Fc1cccc(F)c1CCNC(=S)Nc1cccc(Br)n1 | - | >5 µg/mL |
| CCC(C)OC(=O)c1cccn1S(=O)(=O)c1cc(Cl)ccc1N | MTT | 71.3 µM |
| CNc1nc(Nc2ccc(C#N)cc2)nc(Oc2ccc3cc(C#N)ccc3c2)c1C(C)C | MTT | 288 µM |
| Nc1ncnc2c1ncn2[C@H]1C[C@H]2OC[C@@H](O)[C@H]2O1 | - | >100 µM |
| c1ccc(CNCCc2ccc(CN3CCNCCCCCCCNCC3)cc2)nc1 | - | >100 µg/mL |
| Nc1ccc(Cl)cc1S(=O)(=O)n1cccc1C(=O)OC1CCCCC1 | MTT | >200 µM |
| C/C1=C\C=C\C2(C)C=C(CO)C(C)CC23OC([O-])C(C3=O)C(O)/C=C/C2(C)C=C(C=O)C(C)CC23OC([O-])C(C3=O)C(O)/C(C)=C/C=C/C2C=C(CO)C(C)CC23OC([O-])C(C3=O)C(O)/C=C/C2(C)C=C(C=O)C(C)CC23OC([O-])C(C3=O)C1O | - | >100 µg/mL |
| Cc1ccc2c(c1)C(=O)N(CCOC(=S)Nc1ccc(C#N)cc1)C2=O | - | >100 µM |
| CC(C)C[C@H](NC(=O)[C@]12CCC(C)(C)C=C1[C@H]1CC[C@@H]3[C@@]4(C)CC[C@H](OC(=O)CC(C)(C)C(=O)O)C(C)(C)[C@@H]4CC[C@@]3(C)[C@]1(C)CC2)C(=O)O | - | 21 µM |
| CC1(C)c2nc(C(=O)NCc3ccc(F)cc3)c(O)c(=O)n2CCN1CC(=O)N1CCOCC1 | microscopy | >1 µM |
| CCN(CC)c1cc(-c2ccc(OCCCCC3=NCCO3)cc2OC)on1 | - | 4.4 µM |
| Fc1cccc(F)c1CCNC(=S)Nc1ccc(Br)c(Br)n1 | - | >25 µg/mL |
| CC1(Cc2ccccc2)OS(=O)(=O)C(c2ccccc2)=C1N | - | >125 µg/mL |
| NNC(=O)c1cccn1S(=O)(=O)c1cc(Cl)ccc1N | MTT | >200 µM |
| Cc1cn([C@H]2C[C@H](NC(=O)C(F)(F)F)[C@@H](CO)O2)c(=O)[nH]c1=O | - | 1 µM |
| CC1(C)NS(=O)(=O)Cn2c1nc(C(=O)NCc1ccc(F)cc1)c(O)c2=O | microscopy | >10 µM |
| Cc1sc(-c2ccncc2)c(C2=CCC(C)(C)CC2)c1[C@H](OC(C)(C)C)C(=O)O | luminescence | 42 µM |
| CC1(C)C(N)=C(c2ccccc2)S(=O)(=O)N1Cc1ccccc1 | - | >125 µg/mL |
| [O-][n+]1onc2ncnc(N3CC[N+]4(CC3)CC[N+]3(CCN(c5ncnc6no[n+]([O-])c56)CC3)CC4)c21 | - | >200 µM |
| CCc1c(Sc2ccccc2)n(C/C=C/c2ccc([N+](=O)[O-])s2)c(=O)[nH]c1=O | - | >1 µM |
| [N-]=[N+]=N[C@]1(CO)O[C@@H](n2cnc3c(N)nc(N)nc32)C[C@@H]1O | absorbance | 3.2 µM |
| CCN(CC)c1cc(-c2ccc(OCCCCC#N)cc2OC)on1 | - | 5.8 µM |
| CC1(C)OS(=O)(=O)C=C1NCCc1ccccc1 | - | >125 µg/mL |
| COc1cccnc1NC(=S)NCCc1c(F)cccc1F | - | 4.61 µg/mL |
| O=C(NCc1c(F)cc(F)cc1F)c1cn2c(c(O)c1=O)C(=O)N[C@H]1COCC[C@H]12 | luminescence | 38.3 µM |
| Fc1cccc(F)c1CCNC(=S)Nc1ncc(Br)cn1 | - | >5 µg/mL |
| CC1(C)C(N)=CS(=O)(=O)N1Cc1ccccc1 | - | >125 µg/mL |
| O=C1c2ccccc2C(=O)N1CCOC(=S)Nc1ccc(Cl)c(C(F)(F)F)c1 | - | >100 µM |

Repeating the final 4 entries:

compound	method	value
O=C(NCc1c(F)cc(F)cc1F)c1cn2c(c(O)c1=O)C(=O)N[C@H]1COCC[C@H]12	luminescence	38.3 µM
Fc1cccc(F)c1CCNC(=S)Nc1ncc(Br)cn1	-	>5 µg/mL
CC1(C)C(N)=CS(=O)(=O)N1Cc1ccccc1	-	>125 µg/mL
O=C1c2ccccc2C(=O)N1CCOC(=S)Nc1ccc(Cl)c(C(F)(F)F)c1	-	>100 µM

Neighbouring rows are from separate reports. CCn: concentration that lowers growth or viability of the cells by n%.